A mixed list of measured activities; the numbers were collected in NIAID ChemDB.

All rows: tests in culture; species: Mycobacterium tuberculosis

Inhibition is in % at the dose shown (toxicity tests: loss of growth or viability). A number after MIC or MFC names an inhibition level or a share of isolates. An empty or dashed field is not shown. MIC bound comes from a single tested concentration. Rows are shuffled and stem from different studies. ECn is the concentration giving n% inhibition of infection, replication or growth.

structure	read by	endpoint	strain	tested at	value
COc1ccc(C(=O)/C=C/c2ccncc2)cc1		inhibition		12.5 µg/mL	0%
CC[C@H]1OC(=O)[C@H](C)[C@@H](O[C@H]2C[C@@](C)(OC)[C@@H](O)[C@H](C)O2)[C@H](C)[C@@H](O[C@@H]2O[C@H](C)C[C@H](N(C)C)[C@H]2O)[C@](C)(OC)C[C@@H](C)C(=O)[C@H](C)[C@@H](O)[C@]1(C)O		MIC50	MDR		8 µg/mL
O=C1c2ccccc2C(=O)c2c(-c3ccc(Cl)cc3)noc21	resazurin	MIC bound	H37Rv		>6.25 µg/mL
COc1ccc(C(=O)/C=C/c2ccccc2)c(O)c1		EC50			<12.5 µg/mL
CC(C)c1ccc2c(c1)CC[C@H]1[C@](C)(CNCCN[C@@H]3C[C@@H]4C[C@H]([C@H]3C)C4(C)C)CCC[C@]21C		MIC			50 µM
O=C(/C=C/c1ccccn1)c1ccccn1		inhibition	H37Rv	12.5 µg/mL	42%
CCOC(=O)C1=C(C(=O)c2ccc(OC)cc2)C(c2cccc([N+](=O)[O-])c2)C(C(=O)c2ccc(OC)cc2)=C(C(=O)OCC)N1	BACTEC	inhibition	H37Rv	12.5 µg/mL	17%
Nc1cccc(-c2csc(N)n2)c1		MIC	H37Rv		>100 µg/mL
COc1ccccc1CCNCCN1CC2(C)CC1CC(C)(C)C2		MIC			50 µM
COc1cc2c(cc1O)CC[n+]1cc3c(OC)c(OC)ccc3cc1-2	BACTEC	MIC	H37Rv		12.5 µg/mL
C[C@@H]1CN(c2c(F)c(N)c3c(=O)c(C(=O)O)cn(C4CC4)c3c2F)C[C@H](C)N1		MIC	H37Rv		0.06 µg/mL
CC(C)=CCC/C(C)=C/CNCCNCCNc1ccccc1		MIC			50 µM
O=S1(=O)OC(c2ccc(O)c(Cl)c2)(c2ccc(O)c(Cl)c2)c2ccccc21	BACTEC	MIC bound	H37Rv		>12.5 µg/mL
CC(=O)Nc1ccc(Br)cc1		MIC	H37Rv		>100 µg/mL
CCCCC(CC)CN1CN(CC(CC)CCCC)CC(C)(NCCNN2CCCC2)C1		MIC			50 µM
O=c1c2[nH]c3ccccc3sc=2c(=O)c2ccccc12	BACTEC	inhibition	H37Rv	12.5 µg/mL	93%
CCCCC(CC)CN1CN(CC(CC)CCCC)CC(C)(NCCNCCO)C1		MIC			12.5 µM
O=C1COC(=S)N1CCS(=O)(=O)O		MIC	H37Rv		>100 µg/mL
O=C1OC(c2ccccc2)=N/C1=C\c1cc2c(cc1[N+](=O)[O-])OCO2	BACTEC	MIC bound	H37Rv		>12.5 µg/mL
C[C@H]1COc2c(N3CCN(C)CC3)c(F)cc3c(=O)c(C(=O)O)cn1c23		MIC	H37Rv		0.25 µg/mL
COc1ccc(/C=C/C(=O)c2ccccn2)cc1		EC50	H37Rv		>12.5 µg/mL
OCCOCCN1CCOCC1		MIC	H37Rv		>100 µg/mL
CCOC(=O)Nc1cc2c(cn1)N=C(c1ccccc1)[C@H](C)N2		EC50	H37Rv		>12.5 µg/mL
CC[C@@H](CO)NCCN[C@@H](CC)CO	broth dilution / resazurin	MIC	MDR14		32 µg/mL
CCOC(=O)Nc1cc(NC(C)C(C)c2ccc3c(c2)OCO3)c([N+](=O)[O-])c(N)n1		EC50	H37Rv		>12.5 µg/mL
O=[n+]1c2ccccc2n([O-])c2ccccc21.[Cl][Cu][Cl]		MIC	EMB-R		1.6 µg/mL
COc1ccc(CNCCNC[C@]2(C)CCC[C@]3(C)c4ccc(C(C)C)cc4CC[C@@H]23)cc1OC		MIC			50 µM
O=C(c1ccccc1)C(C(c1ccccc1)N1CCOCC1)N1CCOCC1		MIC	H37Rv		>100 µg/mL
O=C(O)c1ccc(NC(=S)S)cc1	BACTEC	MIC	H37Rv		≥12.5 µg/mL
O=C(O)c1cc([N+](=O)[O-])c(O)c([N+](=O)[O-])c1		MIC	H37Rv		>100 µg/mL
CC1(C)N=c2cc3c(cc2N1c1ccc(Cl)cc1)=Nc1ccccc1N3c1ccc(Cl)cc1		MIC	PZA-R		0.8 µg/mL
CCCCC(CC)CN1CN(CC(CC)CCCC)CC(C)(NCCNCc2ccco2)C1		MIC			12.5 µM
O=C(/C=C/c1ccccc1)c1cccc(I)c1O		inhibition		12.5 µg/mL	0%
Cc1nn(C(=O)c2ccncc2)c(C)c1N=Nc1ccc(Cl)cc1	BACTEC	MIC bound	H37Rv		>12.5 µg/mL
Brc1cccc2c1sc1ccccc12		MIC	H37Rv		>100 µg/mL
COc1ccc(-n2c(CCC(=O)O)nc3c2C(=O)c2ccccc2C3=O)cc1	BACTEC	MIC bound	H37Rv		>12.5 µg/mL
COc1ccc(C2CC(=O)c3cc(F)ccc3O2)cc1		EC50	H37Rv		>12.5 µg/mL
c1ccc(C(CCNCCNC(c2ccccc2)c2ccccc2)c2ccccc2)cc1		MIC			25 µM
COCCNCCNC[C@]1(C)CCC[C@]2(C)c3ccc(C(C)C)cc3CC[C@@H]12		MIC			12.5 µM
COc1ccc(/C=C/C(=O)c2cc(C(=O)O)ccc2O)cc1		inhibition		12.5 µg/mL	0%
c1csc(CCNCCNC2C3CC4CC(C3)CC2C4)c1		MIC			25 µM
CCOC(=O)Nc1cc(N(C)C)c([N+](=O)[O-])c(N)n1		inhibition	H37Rv	12.5 µg/mL	0%
CO[C@H]1/C=C/O[C@@]2(C)Oc3c(C)c(O)c4c(=O)c(c5oc6cc(N7CCN(C(C)C)CC7)cc(=O)c6nc5c4c3=C2O)NC(=O)/C(C)=C\C=C\[C@H](C)[C@H](O)[C@@H](C)[C@@H](O)[C@@H](C)[C@H](OC(C)=O)[C@@H]1C		MBC	3147 (rifampin-sensitive)		0.012 µg/mL
Cc1nc(-n2nc(-c3ccccc3)cc2-c2ccccc2)sc1C(=O)/C=C/c1ccc(Cl)cc1	resazurin	MIC bound	H37Rv		>6.25 µg/mL
CNc1ccc(N)c2c1C(=O)c1c(N)ccc(NC)c1C2=O		MIC	H37Rv		>100 µg/mL
NC(=O)CNC(=O)[C@@H]1C[C@@H](O)CN1C(=O)[C@@H]1CCCN1C(=O)OCc1ccccc1	resazurin	MIC bound	H37Rv		>6.25 µg/mL
CO[C@H]1/C=C/O[C@@]2(C)Oc3c(C)c(O)c4c(O)c(c(/C=N/N5CCN(C/C=C/c6ccccc6)CC5)c(O)c4c3C2=O)NC(=O)/C(C)=C\C=C\[C@H](C)[C@H](O)[C@@H](C)[C@@H](O)[C@@H](C)[C@H](OC(C)=O)[C@@H]1C		MBC	2847 (rifampin-sensitive)		0.2 µg/mL
O=C(/C=C/c1ccco1)c1ccc(Br)cc1O		EC50			>12.5 µg/mL
CCOC(=O)Nc1cc(NCCC(=O)c2ccccc2)c([N+](=O)[O-])c(N)n1		EC50	H37Rv		>12.5 µg/mL
O=C(O)c1c(Cl)c(Cl)c(Cl)c(Cl)c1-c1c2ccc(=O)c(O)c-2oc2c(O)c(O)ccc12	BACTEC	inhibition	H37Rv	12.5 µg/mL	0%
CN(C)C(=S)SC(=S)N(C)C		MIC	H37Rv		>100 µg/mL
CC[C@H]1OC(=O)[C@H](C)[C@@H](O[C@H]2C[C@@](C)(OC)[C@@H](O)[C@H](C)O2)[C@H](C)[C@@H](O[C@@H]2O[C@H](C)C[C@H](N(C)C)[C@H]2O)[C@](C)(O)C[C@@H](C)C(=O)[C@H](C)[C@@H](O)[C@]1(C)O		MIC50	DRUG-SUS		>8 µg/mL
O=[N+]([O-])c1ccc2c(c1)Cc1ccccc1-2		MIC	H37Rv		>100 µg/mL
NCC[C@H](O)C(=O)N[C@@H]1C[C@H](N)[C@@H](O[C@H]2O[C@H](CN)[C@@H](O)[C@H](O)[C@H]2O)[C@H](O)[C@H]1O[C@H]1O[C@H](CO)[C@@H](O)[C@H](N)[C@H]1O		MIC	H37Rv		1 µg/mL
NC(N)=NCCC[C@H](NC(=O)OCCCCCCn1ccc(N)nc1=O)C(=O)O	resazurin	MIC bound	H37Rv		>6.25 µg/mL
c1ccc(-c2c[nH]c(-c3ccccc3)c2)cc1		MIC	H37Rv		100 µg/mL
C1CSCCCSCCCSCCCSCCCSC1	BACTEC	inhibition	H37Rv	12.5 µg/mL	86%
CCCCCCCCC1(C)OC(=O)NC1=O		MIC	H37Rv		25 µg/mL
CCCCC(CC)CN1CN(CC(CC)CCCC)CC(C)(NCCNCCc2ccccc2F)C1		MIC			25 µM
CS(=O)(=O)c1cc([N+](=O)[O-])c2ncccc2c1		MIC	H37Rv		>100 µg/mL
CCCCCCCCCCCNCCNC(C)CC(C)C		MIC			25 µM
Cc1ccc(Nc2cc(Br)c3c4c(cc(=O)n3C)-c3ccccc3C(=O)c24)cc1		MIC	H37Rv		25 µg/mL
CC[C@H]1OC(=O)[C@H](C)[C@@H](O[C@H]2C[C@@](C)(OC)[C@@H](O)[C@H](C)O2)[C@H](C)[C@@H](O[C@@H]2O[C@H](C)C[C@H](N(C)C)[C@H]2O)[C@](C)(O)C[C@@H](C)CN(C)[C@H](C)[C@@H](O)[C@]1(C)O		MBC90	Drug-resistant		>8 µg/mL
CC(=O)Oc1cc(Sc2ccccc2)c(OC(C)=O)cc1Sc1ccccc1		MIC	H37Rv		>100 µg/mL
O=c1oc2nc(-c3ccccc3)[nH]c(=O)c2c2c1CCCC2	BACTEC	MIC bound	H37Rv		>12.5 µg/mL
Nc1ccc(N(c2ccc(N)cc2)c2ccc(N)cc2)cc1		MIC	H37Rv		>100 µg/mL
O=C1CN=C(c2ccccc2)O1	BACTEC	inhibition	H37Rv	12.5 µg/mL	18%
CC(=O)Nc1ccc(S(N)(=O)=O)cc1		MIC	H37Rv		>100 µg/mL
NNC(=O)c1ccc([N+](=O)[O-])cc1	BACTEC	inhibition	H37Rv	12.5 µg/mL	35%
O=S(=O)(CCl)c1ccccc1		MIC	H37Rv		>100 µg/mL
COc1ccc(CCNCCNC(c2ccccc2)c2ccccc2)cc1OC		MIC			50 µM
CCCCCN(c1ccccc1)S(=O)(=O)c1ccc(NC(=O)CC(=O)c2ccccc2)cc1		MIC	H37Rv		>100 µg/mL
CCOC(=O)Nc1cc2[nH]c(-c3ccc(CC)cc3)nc2c(N(CCc2ccccc2)Cc2ccccc2)n1		EC50	H37Rv		<12.5 µg/mL
Cc1cc(N2C(=O)CSC2=S)ccc1Cl	BACTEC	MIC bound	H37Rv		>12.5 µg/mL
NC(Cc1cc(I)c(O)c(I)c1)C(=O)O		MIC	H37Rv		>100 µg/mL

The last 11 rows once more:

O=c1oc2nc(-c3ccccc3)[nH]c(=O)c2c2c1CCCC2 ; read by: BACTEC ; endpoint: MIC bound ; strain: H37Rv ; value: >12.5 µg/mL
Nc1ccc(N(c2ccc(N)cc2)c2ccc(N)cc2)cc1 ; endpoint: MIC ; strain: H37Rv ; value: >100 µg/mL
O=C1CN=C(c2ccccc2)O1 ; read by: BACTEC ; endpoint: inhibition ; strain: H37Rv ; tested at: 12.5 µg/mL ; value: 18%
CC(=O)Nc1ccc(S(N)(=O)=O)cc1 ; endpoint: MIC ; strain: H37Rv ; value: >100 µg/mL
NNC(=O)c1ccc([N+](=O)[O-])cc1 ; read by: BACTEC ; endpoint: inhibition ; strain: H37Rv ; tested at: 12.5 µg/mL ; value: 35%
O=S(=O)(CCl)c1ccccc1 ; endpoint: MIC ; strain: H37Rv ; value: >100 µg/mL
COc1ccc(CCNCCNC(c2ccccc2)c2ccccc2)cc1OC ; endpoint: MIC ; value: 50 µM
CCCCCN(c1ccccc1)S(=O)(=O)c1ccc(NC(=O)CC(=O)c2ccccc2)cc1 ; endpoint: MIC ; strain: H37Rv ; value: >100 µg/mL
CCOC(=O)Nc1cc2[nH]c(-c3ccc(CC)cc3)nc2c(N(CCc2ccccc2)Cc2ccccc2)n1 ; endpoint: EC50 ; strain: H37Rv ; value: <12.5 µg/mL
Cc1cc(N2C(=O)CSC2=S)ccc1Cl ; read by: BACTEC ; endpoint: MIC bound ; strain: H37Rv ; value: >12.5 µg/mL
NC(Cc1cc(I)c(O)c(I)c1)C(=O)O ; endpoint: MIC ; strain: H37Rv ; value: >100 µg/mL